Publication PMC5610748, “Evaluation of Novel α-(Acyloxy)-α-(Quinolin-4-yl) Acetamides as Antiplasmodial Agents” (Iranian Journal of Pharmaceutical Research : IJPR, 2017)

These compounds were tested on human hepatocellular carcinoma cell line (HepG2) (assay: In-vitro cytotoxicity assay (MTT)). Details: selectivity index: ratio of the HepG2 toxicity to the antiplasmodial activity.
Type: cell-based
Method: In drug discovery approaches against malaria, one of the important strategies is the safety of active compounds against human. So, the toxicity of active compounds against P. falciparum was assessed on human hepatocellular carcinoma cell line (HepG2) by using MTT (3-[4,5-dimethylthiazol-2-yl] -2,5 diphenyl tetrazolium bromide) assay ([16]-[17]). The cells were cultured in RPMI 1640 medium enriched with 10% FBS (Fetal Bovine Serum) and incubated at 37 °C with 5% CO2 and 96% humidity. After several subcultures, cells were distributed in 96-well plates at 4,000 cells in 100 µL of culture medium and incubated for 24 h at the same condition to allow attachment of cells to the bottom of wells. Then culture medium removed and 100 µL of two-fold serially diluted concentrations of drug (400-1.56 µg/mL) added to each well in triplicate. Microtiter plates further incubated for 24 h in the same condition. Culture medium without drug was used as negative control. After the incubation time, the drug containing medium discharged and for evaluation of cell survival, 25 µL of MTT solution (4 mg/mL in PBS) added to each well and plates incubated for 3 h (in same condition). Then 100 µL of DMSO added to each well and plates were gently shaken to dissolve the formed formazan crystals. The absorbance of each well measured at 540 nm using an ELISA plate reader (Infinite M200, Tecan). The GI% (Growth Inhibition percent) was calculated using the formula Growth Inhibition% = 100 – […], where ODtest is the mean absorbance of treated cells and ODcontrol is the mean absorbance of a negative control. The cell survival of control assumed 100% and IC50 values generated from dose-response curves for each cell line.

In order of rising SI:
1. CC(C)(C)c1ccc(C(=O)OC(C(=O)NC2CCCCC2)c2ccnc3ccccc23)cc1 (stereo not shown) [Compound 2]  72.33
2. Cc1cccc(C)c1NC(=O)C(OC(=O)c1ccc(C(C)(C)C)cc1)c1ccnc2ccccc12 (stereo not shown) [Compound 20]  144.98
3. O=C(OC(C(=O)NC1CCCCC1)c1ccnc2ccccc12)c1ccccc1 (stereo not shown) [Compound 1]  152.17
4. Cc1cccc(C)c1NC(=O)C(OC(=O)c1cccc2ccccc12)c1ccnc2ccccc12 (stereo not shown) [Compound 22]  191.90
